Compound potency records, mixed from different reports. Data source: NIAID ChemDB in PubChem.

All rows: whole-cell or culture tests; species: Hepatitis C virus; cell line: Huh7; endpoint: EC50

Conditions beyond the fields shown may differ between rows. An empty or dashed field is not shown. Two numbers with a dash give a range or band. ECn: concentration that inhibits the pathogen or its effect by n%.

smiles,strain or isolate,mutations,method,value
COC(=O)/C=C/c1ccc(NC(=O)C2(NC(=O)c3ccc4c(C5CCCCC5)c5n(c4c3)CC(C(=O)NCCN(C)C)=Cc3nccnc3-5)CCCC2)cc1,,,replicon,0.01–1 µM
C=CC1CC1(NC(=O)[C@@H]1C[C@@H](OC(=O)N(C)C)CN1C(=O)[C@@H](NC(=O)OC(C)(C)C)C(C)(C)C)C(=O)NS(=O)(=O)C1CC1,1b,,replicon,>10 µM
COc1c(-c2ccc3cc(NS(C)(=O)=O)ccc3c2)cc(-n2ccc(=O)[nH]c2=O)cc1C(C)(C)C,genotype 1a H77,C316Y,luciferase,1.413 µM
C=CC1CC1(NC(=O)[C@@H]1C[C@@H](OC(=O)Nc2cc(C(=O)OCC)ccc2N2CCCCC2)CN1C(=O)[C@@H](NC(=O)OC(C)(C)C)C(C)(C)C)C(=O)NS(=O)(=O)C1CC1,1b,,replicon,0.1–1 µM
CN(C)S(=O)(=O)NC(=O)c1ccc2c(C3CCCCC3)c3n(c2c1)CCNc1ccccc1-3,,,replicon,0.01–1 µM
Cc1cc(-c2nnc(N[C@@H]3CCC[C@H](O)C3)o2)nc2c(C(C)(C)C)cc(OCC(F)(F)F)cc12,GT 1b WT,,,0.00032 µM
C=CC1CC1(NC(=O)[C@@H]1C[C@@H](Oc2cc(-c3ccccc3)nc3cc(OC)ccc23)CN1C(=O)[C@@H](NC(=O)OC(C)(C)C)C(C)C)C(=O)NS(C)(=O)=O,1b,,replicon,<5 µM
O=C(Cc1ccc2c(c1)OCO2)N/N=C/c1ccccc1OS(=O)(=O)c1ccc(C(F)(F)F)cc1,,,replicon,<5 µM
O=C(O)/C=C/c1ccc(NC(=O)C2(NC(=O)c3ccc4c(c3)nc(-c3ccoc3)n4C3CCCCC3)CCNCC2)cc1,,,,≤5 µM
COC(=O)c1ccc2c(C3CCCCC3)c3n(c2c1)CC(C(=O)O)=Cc1cc(OCc2ccccc2)ccc1-3,,,replicon,1–10 µM
CC[C@@H]1C[C@]1(NC(=O)[C@@H]1C[C@@H](Oc2cc(-c3ccccc3)nc3cc(OC)ccc23)CN1C(=O)[C@@H](NC(=O)OC(C)C)C(C)C)C(=O)NS(=O)(=O)C1CC1,1b,,replicon,<0.05 µM
Cc1cccc(/C=N/NC(=O)Cc2cccc(Cl)c2)c1OS(=O)(=O)c1ccc(C(F)(F)F)cc1,,,replicon,<5 µM
CCOc1nc(N)nc2ccc(-c3ccc(C(=O)NC(C)C)cc3)nc12,,,replicon,>1 µM
C=CC1CC1(NC(=O)[C@@H]1C[C@@H](OC(=O)Nc2c(C)cccc2Cl)CN1C(=O)[C@@H](NC(=O)OC(C)(C)C)C(C)(C)C)C(=O)NS(=O)(=O)C1CC1,1b,,replicon,1–10 µM
C=C1C[C@]1(NC(=O)[C@@H]1C[C@@H](Oc2cc(-c3ccccc3)nc3cc(OC)ccc23)CN1C(=O)[C@@H](NC(=O)OC(C)(C)C)C(C)(C)C)C(=O)NS(=O)(=O)c1cc(F)ccc1C,1b,,replicon,<0.5 µM
CC(C)(CN1CCOCC1)NC(=O)c1ccc(-c2ccc3nc(N)nc(O[C@H]4CCOC4)c3n2)cc1,,,replicon,<0.3 µM
O=C1Cn2c(c(C3CCCCC3)c3ccc(C(=O)O)cc32)N1,,,replicon,>10 µM
C=C[C@@H]1C[C@]1(NC(=O)[C@@H]1C[C@@H](Oc2cc(-c3ccccc3)nc3cc(OC)ccc23)CN1C(=O)[C@@H](NC(=O)C1(O)CC1)C(C)(C)C)C(=O)NS(=O)(=O)C1CC1,1b,,replicon,<5 µM
O=C(O)/C=C/c1ccc(NC(=O)C2(NC(=O)c3ccc4c(c3)nc(-c3ccoc3)n4C3C[C@H]4CC[C@@H]3C4)CCCC2)cc1,,,,≤5 µM
CCOc1nc(N)nc2ccc(-c3ccc(NC(=O)C4(O)CC4)cc3)nc12,,,replicon,<0.3 µM
C=C[C@@H]1C[C@]1(NC(=O)[C@@H]1C[C@@H](Oc2cc(-c3ccccc3)nc3cc(OC)ccc23)CN1C(=O)[C@@H](NC(=O)OC(C)(C)C)C1CCCC1)C(=O)NS(=O)(=O)C(C)C,1b,,replicon,<0.05 µM
O=C(Nc1ccc(C2SC(=Nc3cccc(F)c3)N(Cc3ccco3)C2=O)cc1)[C@H]1CCCN1C(=O)COc1ccccc1,,,replicon,0.1–1 µM
CCOc1ccccc1C(=O)N/N=C/c1ccccc1OS(=O)(=O)c1ccc(C(F)(F)F)cc1,,,replicon,>50 µM
COC(=O)Nc1ccc(-c2ccc3nc(N)nc(NCCS(C)(=O)=O)c3n2)cc1,,,replicon,0.3–1 µM
Cc1ccc(N=C2SC(c3ccc(NC(=O)[C@@H](C)NC(=O)OCc4ccccc4)cc3)C(=O)N2Cc2ccco2)c(Cl)c1,,,replicon,1–5 µM
C=CC1CC1(NC(=O)[C@@H]1C[C@@H](OC(=O)N(C(C)C)C(C)C)CN1C(=O)[C@@H](NC(=O)OC(C)(C)C)C(C)(C)C)C(=O)NS(=O)(=O)C1CC1,1b,,replicon,0.1–1 µM
COC(=O)c1ccc2c(C3CCCCC3)c3n(c2c1)CCNc1ccccc1-3,,,replicon,0.01–1 µM
COc1ccc(C(F)(F)F)cc1N=C1SC(c2ccc(NC(=O)[C@H]3CCCN3C(=O)OCc3ccccc3)cc2)C(=O)N1Cc1ccco1,,,replicon,0.1–1 µM
C=C[C@@H]1C[C@]1(NC(=O)[C@@H]1C[C@@H](Oc2cc(-c3ccccc3)nc3cc(OC)ccc23)CN1C(=O)[C@@H](NC(=O)OC(C)(C)C)C(C)(C)C)C(=O)NS(=O)(=O)c1ccccc1,1b,,replicon,<0.05 µM
O=C(Cc1ccccc1)N/N=C/c1ccccc1OS(=O)(=O)c1ccc(Br)cc1,,,replicon,<5 µM
Cc1cc(-c2nnc(NC3CC(O)(C(F)F)C3)o2)nc2c(C(C)(C)C)cc(NCC(F)(F)F)cc12,2a - JFH,,luciferase,0.025 µM
O=S(=O)(Cc1cccc(Cl)c1)N/N=C/c1ccccc1NS(=O)(=O)c1ccc(C(F)(F)F)cc1,,,replicon,5–50 µM
C=CC1CC1(NC(=O)[C@@H]1C[C@@H](OC(=O)Nc2ccccc2C)CN1C(=O)[C@@H](NC(=O)OC(C)(C)C)C(C)(C)C)C(=O)NS(=O)(=O)C1CC1,1b,,replicon,1–10 µM
O=C(O)/C=C/c1ccc(NC(=O)C2(NC(=O)c3ccc4c(c3)nc(-c3ccccn3)n4C3CCCCC3)CCCC2)cc1,,,,≤5 µM
C=CC1CC1(NC(=O)[C@@H]1C[C@@H](OC(=O)Nc2cc(Cl)nc(Cl)c2)CN1C(=O)[C@@H](NC(=O)OC(C)(C)C)C(C)(C)C)C(=O)NS(=O)(=O)C1CC1,1b,,replicon,>10 µM
O=C(Nc1ccc(C2SC(=Nc3cccc(F)c3)N(Cc3ccco3)C2=O)cc1)[C@H]1CCC(=O)N1C(=O)OCc1ccccc1,,,replicon,0.1–1 µM
C=C[C@@H]1C[C@]1(NC(=O)[C@@H]1C[C@@H](Oc2cc(-c3ccccc3)nc3cc(OC)ccc23)CN1C(=O)[C@@H](NC(=O)CC1C2CC1C2)C(C)(C)C)C(=O)NS(=O)(=O)C1CC1,1b,,replicon,<0.05 µM
CCCCNC(=O)c1ccc(-c2ccc3nc(N)nc(OCC)c3n2)cc1,,,replicon,0.3–1 µM
O=C(O)/C=C/c1ccc(NC(=O)C2(NC(=O)c3ccc4c(c3)nc(-c3ccccc3)n4C3CCCCC3)CCCC2)cc1,,,,≤5 µM
C=CC1CC1(NC(=O)[C@@H]1C[C@@H](OC(=O)Nc2cc(C)ccc2-n2nccn2)CN1C(=O)[C@@H](NC(=O)OC(C)(C)C)C(C)(C)C)C(=O)NS(=O)(=O)C1CC1,1b,,replicon,<0.1 µM
CN(C)S(=O)(=O)NC(=O)c1ccc2c(C3CCCCC3)c3n(c2c1)CC(C(=O)N1CCN(N2CCCC2)CC1)Cc1ccccc1-3,,,replicon,0.01–1 µM
C=CC1CC1(NC(=O)[C@@H]1C[C@@H](OC(=O)NCc2cccc(CC)c2)CN1C(=O)[C@@H](NC(=O)OC(C)(C)C)C(C)(C)C)C(=O)NS(=O)(=O)C1CC1,1b,,replicon,1–10 µM
COC(=O)/C=C/c1ccc(NC(=O)C2(NC(=O)c3ccc4c(C5CCCCC5)c5n(c4c3)CC(C(=O)NCCN(C)C)N(C)c3nccnc3-5)CCCC2)cc1,,,replicon,0.01–1 µM
O=C(O)/C=C/c1ccc(NC(=O)C2(NC(=O)c3ccc4c(c3)nc(-c3ccoc3)n4C3CCCCC3)CC2)cc1,,,,5–50 µM

Repeating the first 5 entries:

| smiles | strain or isolate | mutations | method | value |
|---|---|---|---|---|
| COC(=O)/C=C/c1ccc(NC(=O)C2(NC(=O)c3ccc4c(C5CCCCC5)c5n(c4c3)CC(C(=O)NCCN(C)C)=Cc3nccnc3-5)CCCC2)cc1 |  |  | replicon | 0.01–1 µM |
| C=CC1CC1(NC(=O)[C@@H]1C[C@@H](OC(=O)N(C)C)CN1C(=O)[C@@H](NC(=O)OC(C)(C)C)C(C)(C)C)C(=O)NS(=O)(=O)C1CC1 | 1b |  | replicon | >10 µM |
| COc1c(-c2ccc3cc(NS(C)(=O)=O)ccc3c2)cc(-n2ccc(=O)[nH]c2=O)cc1C(C)(C)C | genotype 1a H77 | C316Y | luciferase | 1.413 µM |
| C=CC1CC1(NC(=O)[C@@H]1C[C@@H](OC(=O)Nc2cc(C(=O)OCC)ccc2N2CCCCC2)CN1C(=O)[C@@H](NC(=O)OC(C)(C)C)C(C)(C)C)C(=O)NS(=O)(=O)C1CC1 | 1b |  | replicon | 0.1–1 µM |
| CN(C)S(=O)(=O)NC(=O)c1ccc2c(C3CCCCC3)c3n(c2c1)CCNc1ccccc1-3 |  |  | replicon | 0.01–1 µM |